Results reported in patent publication US5414001A, “Antineoplastic pyrrolo[4,3,2-de]quinolin-8(1H)-ones” (American Cyanamid Company, priority 1993, dated 1995).

What was measured:
Experiment in all cases: Antibacterial agar diffusion assay
Assay type in all cases: cell-based
Details in all cases: H = hazy zones
E. coli 300 = test system: E. coli 300; design: concentration or dose not given beside the values
C. freundii 395 = test system: C. freundii 395
K. pneumoniae 53 = test system: K. pneumoniae 53

Cn1cc2c3c1C(=O)C(N)=CC3=NCC2.O=C(O)C(F)(F)F
ZONES OF INHIBITION (E. coli 300; 250 microgram/ml): 10H
ZONES OF INHIBITION (E. coli 300; 1000 microgram/ml): 16 MM
ZONES OF INHIBITION (C. freundii 395; 250 microgram/ml): 10H
ZONES OF INHIBITION (C. freundii 395; 1000 microgram/ml): 14 MM
ZONES OF INHIBITION (K. pneumoniae 53; 250 microgram/ml): 13H
ZONES OF INHIBITION (K. pneumoniae 53; 1000 microgram/ml): 17H
